Pooled drug test results. Numbers come from NIAID ChemDB, via PubChem.

Shared fields: growth or infection tests; species: Candida albicans; endpoint: MIC

Rows are shuffled and stem from different studies. Blank or dashed fields: not listed here.

COc1ccc2[nH]c(=O)c(C(C)C)nc2c1Cl ; result: >200 µM
O=C(CN1CCOCC1)N/N=C\C(=O)c1ccc(-c2ccccc2)cc1 ; result: >50 µg/mL
Cc1c(O)cccc1C(=O)N[C@@H](CSc1ccccc1)[C@H](O)CN1C[C@H]2CCCC[C@H]2C[C@H]1C(=O)NC(C)(C)C ; strain: I123A ; result: 64 µg/mL
CC(=O)Nc1ccc(OC/C(N)=N\NC(=O)c2ccncc2)cc1 ; strain: ATCC E10231 ; result: >100 µg/mL
Cc1c(C(c2ccccc2)n2ccnc2)cnn1-c1ccccc1 ; result: >200 µM
O=C(CN1CCCCC1)N/N=C\C(=O)c1ccccc1 ; result: >50 µg/mL
CCOc1ccccc1N1COc2c(ccc3ccccc23)C1 ; strain: MTCC 277 ; result: 15 µg/mL
Cc1ccc(C2CC(c3ccc4ccccc4c3)=Cc3[nH][nH]c(=O)c32)cc1 ; result: 25 µg/mL
COC(=O)[C@@H]1CCCN1C(=O)[C@H](Cc1cnc[nH]1)NC(=O)[C@H](C)NC(=O)[C@@H](NC(=O)c1cc(I)ccc1-c1cnc(C)[nH]1)[C@@H](C)O ; result: 6.25 µg/mL
CCSc1nc(C(N)=S)cnc1CC(C)C ; strain: ATCC 44859 ; result: >31.25 µg/mL
O=C(NCCCCCCNC(=O)NNC(=O)c1ccccc1)NNC(=O)c1ccccc1 ; result: 7.5 µg/mL
CCCc1c(C(c2ccccc2)n2cncn2)cnn1-c1ccccc1 ; result: >200 µM
OC(Cn1cncn1)(c1ccc(F)cc1F)C(F)(F)c1nc2ccccc2o1 ; strain: ATCC 90028 ; result: 0.25 µg/mL
CCCCc1ncc(C(N)=S)nc1SCCC ; strain: ATCC 44859 ; result: >31.25 µg/mL
C[C@@H](c1ncncc1F)[C@](O)(Cn1cncn1)c1ccc(F)cc1F ; strain: 2038 (FLU-R) ; result: 4 µg/mL
COc1cc2c(ccc3cc(OC)c(O)c(OC)c32)cc1O ; result: 50 µg/mL
Cn1c(C(F)(F)C(O)(Cn2cncn2)c2ccc(F)cc2F)nc2ccccc21 ; strain: ATCC 90028 ; result: 0.125 µg/mL
c1ccc(-c2c(C(c3ccccc3)n3ccnc3)cnn2-c2ccccc2)cc1 ; result: >200 µM
CC(C)=CCC/C(C)=C/Cc1c(O)cc(O)c(C(=O)c2ccccc2)c1O ; result: 25 µg/mL
O=c1[nH]nc(-c2ccccc2)n1CCCCCCn1c(-c2ccccc2)n[nH]c1=O ; result: 1.87 µg/mL
COc1cc(O)c2c(c1)C(=O)c1c(cc3c(c1O)-c1c(cc(C)c(C(=O)NC(CO)C(=O)O)c1O)[C@H](OC1OC(C)C(O)C(OC4OCC(O)C(O)C4O)C1O)C3O)C2=O ; strain: ATCC 32354 (B311) ; result: 3.1 µg/mL
O=c1[nH]c2ccc(Cl)cc2nc1CBr ; result: >200 µM
COc1cc2c(cc1O)CCc1cc(O)cc(OC)c1-2 ; result: 50 µg/mL
COc1ccc2[nH]c(=O)c(C(F)(F)F)nc2c1Cl ; result: >200 µM
COc1ccc(OC/C(N=Cc2ccncc2)=N\NC(=O)c2ccncc2)cc1 ; strain: ATCC E10231 ; result: >100 µg/mL
O=c1cnc2ccc(Cl)cc2[nH]1 ; result: >200 µM
CCCc1c(C(c2ccccc2)n2ccnc2)cnn1-c1ccccc1 ; result: >200 µM
Cc1cccc(OC/C(N=Cc2ccncc2)=N\NC(=O)c2ccncc2)c1 ; strain: ATCC E10231 ; result: >100 µg/mL
CC(C)c1c(C(c2ccccc2)n2cncn2)cnn1-c1ccccc1 ; result: >200 µM
O=C(COc1c(Br)c(=O)oc2ccccc12)N[C@@H](Cc1cnc[nH]1)C(=O)O[C@@H](Cc1c[nH]c2ccccc12)C(=O)O ; result: 6.25 µg/mL
O=C(CN1CCCCC1)N/N=C\C(=O)c1ccc(Oc2ccccc2)cc1 ; result: >50 µg/mL
CCc1c(C(c2ccccc2)n2cncn2)cnn1-c1ccccc1 ; result: >200 µM
Cc1ccc(N2COc3c(ccc4ccccc34)C2)cc1 ; strain: MTCC 277 ; result: 20 µg/mL
COc1cc(O)cc(OC)c1C(=O)/C=C/c1ccccc1 ; result: 50 µg/mL
C[C@H]1[C@H](O)[C@@H](C)/C=C/C=C/C=C/C=C/C=C/C=C/C=C/[C@H](O[C@@H]2O[C@H](C)[C@@H](O)[C@H](N)[C@@H]2O)C[C@@H]2O[C@](O)(C[C@@H](O)C[C@@H](O)CC[C@H](O)[C@@H](O)C[C@@H](O)CC(=O)O[C@H]1C)C[C@H](O)[C@H]2C(=O)O ; strain: IFO 1594 ; result: 1.56 µg/mL
O=c1[nH]c2c(Cl)c(Cl)ccc2nc1CBr ; result: >200 µM
CC(=O)N1CCN(c2ccc(OC[C@H]3CO[C@](Cn4ccnc4)(c4ccc(Cl)cc4Cl)O3)cc2)CC1 ; strain: FR2 ; result: 0.06 µg/mL
OC(Cn1cncn1)(c1ccc(F)cc1)C(F)(F)c1cccs1 ; strain: ATCC 90028 ; result: ≤0.125 µg/mL
CO[C@@H]1[C@@H](C)O[C@@H](OCC23CC4C(C)CCC4C4(C=O)CC2C=C(C(C)C)C43C(=O)O)[C@@H](O)C12OC(=O)[C@H](CCCCCCCC(=O)O)O2 ; strain: MY1055 ; result: 6.25 µg/mL
O=C(COc1cc(=O)oc2ccccc12)N[C@@H](Cc1ccc(O)cc1)C(=O)O ; result: 12.5 µg/mL
O=C(CN1CCOCC1)N/N=C\C(=O)c1ccccc1 ; result: >50 µg/mL
COCCOCCOCCOCCOCCOCCNC(=O)[C@H]1[C@@H]2C[C@@H](O[C@@H]3O[C@H](C)[C@@H](O)[C@H](N)[C@@H]3O)/C=C/C=C/C=C/C=C/C=C/C=C/C=C/[C@H](C)[C@@H](O)[C@H](C)[C@H](C)OC(=O)C[C@H](O)C[C@H](O)[C@@H](O)CC[C@H](O)C[C@H](O)C[C@](O)(C[C@@H]1O)O2 ; strain: Isolate 92-1341 ; result: 3.03 µg/mL
CC(C)=CCc1c(O)cc(O)c2oc3cc(O)cc(O)c3c(=O)c12 ; result: >25 µg/mL
O=C(CN1CCOCC1)N/N=C\C(=O)c1ccc(Sc2ccccc2)cc1 ; result: >50 µg/mL
CC(C)C1=C[C@H]2C[C@]3(C=O)[C@@H]4CC[C@@H](C)[C@H]4C[C@@]2(CO[C@H]2C[C@@H]4OC(C)(C)O[C@@H]4[C@@H](C)O2)[C@]13C(=O)O ; strain: Isolate CL-245 (fluconazole-resistant) ; result: <0.01 µg/mL
CCCCSc1nc(C(N)=O)cnc1CCCC ; strain: ATCC 44859 ; result: >31.25 µg/mL
Cc1ccccc1OC/C(N)=N\NC(=O)c1ccncc1 ; strain: ATCC E10231 ; result: >100 µg/mL
Cn1cccc1CC(=O)NNC(=O)NCCCCCCNC(=O)NNC(=O)Cc1cccn1C ; result: 7.5 µg/mL
CC(C)(C)c1c(C(c2ccccc2)n2ccnc2)cnn1-c1ccccc1 ; result: >200 µM
Cc1cccc(OC/C(N)=N\NC(=O)c2ccncc2)c1 ; strain: ATCC E10231 ; result: >100 µg/mL
COc1cc(OC)c2c(ccc3cc(O)c(O)cc32)c1 ; result: 50 µg/mL
Nc1cccc2nc(C(F)(F)F)c(=O)[nH]c12 ; result: >200 µM
CCCCc1ncc(C(N)=O)nc1SCCC ; strain: ATCC 44859 ; result: >31.25 µg/mL
COc1c(O)ccc2c(=O)c3c(O)cc(O)cc3oc12 ; result: >25 µg/mL
COc1cccc(N2COc3c(ccc4ccccc34)C2)c1 ; strain: MTCC 277 ; result: 10 µg/mL
OC(Cc1ccccn1)(Cn1cncn1)c1ccc(F)cc1F ; strain: ATCC 90028 ; result: 0.125 µg/mL
O=c1[nH][nH]c2c1C(c1ccc(F)cc1)CC(c1ccc3ccccc3c1)=C2 ; result: 12.5 µg/mL
COC(=O)[C@@H](NC(=O)c1ccccc1-c1cnc(C)[nH]1)[C@@H](C)O ; result: 6.25 µg/mL
CC(C)(C)c1ncc(C(N)=S)nc1Sc1ccccc1 ; strain: ATCC 44859 ; result: >31.25 µg/mL
O=C(N/N=C(\COc1cccc(Cl)c1)N=Cc1ccncc1)c1ccncc1 ; strain: ATCC E10231 ; result: >100 µg/mL
c1ccc(C(c2cnn(-c3ccccc3)c2)n2cncn2)cc1 ; result: >200 µM
Cc1ncc(-c2ccc(I)cc2C(=O)N[C@@H](Cc2ccccc2)C(=O)NCC(=O)N[C@@H](Cc2ccccc2)C(=O)O)[nH]1 ; result: 12.5 µg/mL
CC(=O)N1CCN(c2ccc(OC[C@@H]3CO[C@@](Cn4ccnc4)(c4ccc5c(c4)SCC(=O)N5C)O3)cc2)CC1 ; result: 62.5 µg/mL
CC(C)=C[C@H]1C[C@](C)(O)C2C3CCC4[C@@]5(C)CCC[C@](C)(O[C@H]6OC[C@H](O)[C@H](OC7O[C@H](CO)[C@@H](O)[C@H](O)[C@H]7OC(=O)/C=C/c7ccc(O)cc7)[C@H]6O[C@H]6C[C@H](CO)[C@@H](O)[C@@H]6O)C5CC[C@@]4(C)[C@@]34CO[C@@]2(C4)O1 ; result: >50 µg/mL
CCCc1ncc(C(N)=S)nc1SCC ; strain: ATCC 44859 ; result: >31.25 µg/mL
C=CC(C)(/C=C\c1ccc(O)cc1)c1ccc(O)cc1 ; strain: Y1-3 ; result: 50 µg/mL
CCC(C)CCCCCC(C)CCCCCCC(C)OC1C(=O)c2c(O)cc(O)cc2OC1c1ccc(O)cc1 ; result: 250 µg/mL

The first 5 rows once more:

compound	strain	result
COc1ccc2[nH]c(=O)c(C(C)C)nc2c1Cl	-	>200 µM
O=C(CN1CCOCC1)N/N=C\C(=O)c1ccc(-c2ccccc2)cc1	-	>50 µg/mL
Cc1c(O)cccc1C(=O)N[C@@H](CSc1ccccc1)[C@H](O)CN1C[C@H]2CCCC[C@H]2C[C@H]1C(=O)NC(C)(C)C	I123A	64 µg/mL
CC(=O)Nc1ccc(OC/C(N)=N\NC(=O)c2ccncc2)cc1	ATCC E10231	>100 µg/mL
Cc1c(C(c2ccccc2)n2ccnc2)cnn1-c1ccccc1	-	>200 µM